The results in this text go back to patent publication EP4821928A1, “BICYCLIC HETEROCYCLIC COMPOUND AND FUNGICIDE FOR AGRICULTURAL AND HORTICULTURAL USE CONTAINING SAME AS ACTIVE INGREDIENT” (dated 2026).

Assay [1] relates to Speckled leaf blotch fungus (Septoria tritici). The assay is described as follows: Speckled leaf blotch anti-germ test (Test Example F). The conditions noted are these: 50 ppm/well; Czapek-dox broth; 25°C for 3 days; absorbance 600 nm. The method, then:
(§1) Speckled leaf blotch fungus (Septoria tritici) Conidia were suspended in Czapek-dox broth and a suspension of 1 × 10^5 spores were prepared. The prepared spore suspension was seeded at 100 µl/well to a 96-well multiplate. In the test, each compound was dissolved in a dimethyl sulfoxide-methanol mixed solution (volume ratio: 9/1) and dispensed at 50 ppm/well. The absorbance of each well was measured at a wavelength of 600 nm using a photometer. The multiplate was incubated at 25°C for 3 days, followed by absorbance measurement again. The difference in absorbance between the treatment day and 3 days later was calculated, and the rate of inhibition was calculated from the ratio between the treatment group and the non-treatment group.

The subject of assay [2] is Fusarium blight fungus (Fusarium graminearum). The assay is described as follows: Fusarium blight anti-germ test (Test Example D). The conditions noted are these: 50 ppm/well; Czapek-dox broth; 25°C for 3 days; absorbance 600 nm. Here is the method: as §1, with “Fusarium blight” for “Speckled leaf blotch”, “(Fusarium graminearum)” for “(Septoria tritici)”
The test system of assay [3] is Magnaporthe grisea. The assay is described as follows: Rice blast disease pot test (Test Example A). The settings on record: 250 ppm sprayed, 2.5 ml/pot; rice variety Sachikaze; degree of disease development 6 to 8 days after inoculation. The method, then:
Seeds of test plants (rice variety: Sachikaze) were planted and then cultivated until the second leaves appeared. In the test, each synthesized compound was dissolved in a dimethyl sulfoxide-methanol mixed solution (volume ratio: 9/1) and diluted into a concentration of 250 ppm with ion exchange water to obtain a chemical. The obtained chemical was sprayed to the test plants (2.5 ml/pot). After drying of the chemical, the plants were inoculated by spraying of 3 to 5 × 10^4 organisms/ml of a conidium suspension of Magnaporthe grisea. The plants thus inoculated were left at room temperature of 23 to 25°C in a moist chamber for approximately 24 hours to promote the onset of the disease. The degree of disease development was investigated 6 to 8 days after inoculation, and effects of the chemical were evaluated.
(§2) The degrees of disease development in these Test Examples were evaluated by 0.05 when the degree of disease development in a plant having no onset of the disease was defined as 0 and the degree of disease development in a plant in a group without chemical treatment was defined as 3. From the degree of disease development, a control value was calculated according to the following expression.
(§3) Control value = 100{1−(n/3)} [formula] N = Degree of disease development in each chemical treatment group.

In assay [4] the test system is Botrytis cinerea. The assay is described as follows: Tomato gray mold pot test (Test Example B). The settings on record: 250 ppm sprayed, 2.5 ml/pot; tomato variety Oogata Fukuju; degree of disease development 2 to 3 days after inoculation. The method, then: Seeds of test plants (tomato variety: Oogata Fukuju) were planted and then cultivated until three first leaves appeared. In the test, each compound was dissolved in a dimethyl sulfoxide-methanol mixed solution (volume ratio: 9/1) and diluted into a concentration of 250 ppm with ion exchange water to obtain a chemical. The obtained chemical was sprayed to the test plants (2.5 ml/pot). After drying of the chemical, the plants were inoculated by spraying of 3 to 6 × 10^5 organisms/ml of a conidium suspension of Botrytis cinerea. The plants thus inoculated were left at room temperature of 23 to 25°C in a moist chamber for approximately 48 hours to promote the onset of the disease. The degree of disease development was investigated 2 to 3 days after inoculation, and effects of the chemical were evaluated.
as §2, §3

The subject of assay [5] is Anthracnose fungus (Glomerella cingulata). The assay is described as follows: Anthracnose anti-germ test (Test Example E). The conditions noted are these: 50 ppm/well; Czapek-dox broth; 25°C for 3 days; absorbance 600 nm. Here is the method:
The prepared spore suspension was seeded at 100 µl/well to a 96-well multiplate. In the test, each compound was dissolved in a dimethyl sulfoxide-methanol mixed solution (volume ratio: 9/1) and dispensed at 50 ppm/well. The absorbance of each well was measured at a wavelength of 600 nm using a photometer. The multiplate was incubated at 25°C for 3 days, followed by absorbance measurement again. The difference in absorbance between the treatment day and 3 days later was calculated, and the rate of inhibition was calculated from the ratio between the treatment group and the non-treatment group.

In assay [6] the test system is Gray mold fungus (Botrytis cinerea). The assay is described as follows: Gray mold anti-germ test (Test Example C). The conditions noted are these: 50 ppm/well; Czapek-dox broth; 25°C for 3 days; absorbance 600 nm. The method, then:
as §1, with “Gray mold” for “Speckled leaf blotch”, “(Botrytis cinerea)” for “(Septoria tritici)”

As to `Cc1cccc2c1OC(C)(C)N=C2n1cnc2c(Br)cccc21`, the “Speckled leaf blotch anti-germ test (rate of inhibition)” value in assay [1] is on record as “H (H represents a control value or rate of inhibition of larger than 50%)”. In addition, the “Fusarium blight anti-germ test (rate of inhibition)” value in assay [2] is reported as “L (L represents a control value or rate of inhibition of 50% or less)”. Further, the “Rice blast disease pot test (control value)” value (shortened to “Rice blast disease pot test”) in assay [3] is “H (H represents a control value or rate of inhibition of larger than 50%)”. For the same compound, the “Tomato gray mold pot test (control value)” value (shortened to “Tomato gray mold pot test”) in assay [4] is recorded as “H (H represents a control value or rate of inhibition of larger than 50%)”. For the same compound, in assay [5], the “Anthracnose anti-germ test (rate of inhibition)” value is given as “H (H represents a control value or rate of inhibition of larger than 50%)”. The “Gray mold anti-germ test (rate of inhibition)” value in assay [6] is “H (H represents a control value or rate of inhibition of larger than 50%)”.

For the compound `Cc1ccc2c(C3=NC(C)(C)Oc4c3ccc(F)c4C)cnn2c1C`, the “Speckled leaf blotch anti-germ test (rate of inhibition)” value in assay [1] is reported as “H (H represents a control value or rate of inhibition of larger than 50%)”. The “Fusarium blight anti-germ test (rate of inhibition)” value in assay [2] is given as “H (H represents a control value or rate of inhibition of larger than 50%)”. Besides, in assay [3], the “Rice blast disease pot test” value is “H (H represents a control value or rate of inhibition of larger than 50%)”. Moreover, the “Tomato gray mold pot test” value in assay [4] is reported as “H (H represents a control value or rate of inhibition of larger than 50%)”. The “Anthracnose anti-germ test (rate of inhibition)” value in assay [5] is “H (H represents a control value or rate of inhibition of larger than 50%)”. The “Gray mold anti-germ test (rate of inhibition)” value in assay [6] is listed as “H (H represents a control value or rate of inhibition of larger than 50%)”.

Regarding `Cc1ccc2c(c1)SC(C)(C)N=C2n1cnc2c(C)c(C)ccc21`, the “Speckled leaf blotch anti-germ test (rate of inhibition)” value in assay [1] was “H (H represents a control value or rate of inhibition of larger than 50%)”. In addition, the “Fusarium blight anti-germ test (rate of inhibition)” value in assay [2] is “H (H represents a control value or rate of inhibition of larger than 50%)”. In assay [3], the “Rice blast disease pot test” value is on record as “H (H represents a control value or rate of inhibition of larger than 50%)”. Further, the “Tomato gray mold pot test” value in assay [4] was “H (H represents a control value or rate of inhibition of larger than 50%)”. In addition, the “Anthracnose anti-germ test (rate of inhibition)” value in assay [5] is on record as “H (H represents a control value or rate of inhibition of larger than 50%)”. Besides, the “Gray mold anti-germ test (rate of inhibition)” value in assay [6] was “H (H represents a control value or rate of inhibition of larger than 50%)”.

For `CCc1ccc2c(c1)OC(C)(C)N=C2n1cnc2c(C)c(C)ccc21`, in assay [1], the “Speckled leaf blotch anti-germ test (rate of inhibition)” value was “H (H represents a control value or rate of inhibition of larger than 50%)”. In addition, the “Fusarium blight anti-germ test (rate of inhibition)” value in assay [2] was “H (H represents a control value or rate of inhibition of larger than 50%)”. Also, the “Rice blast disease pot test” value in assay [3] was “H (H represents a control value or rate of inhibition of larger than 50%)”. In addition, the “Tomato gray mold pot test” value in assay [4] was “H (H represents a control value or rate of inhibition of larger than 50%)”. The “Anthracnose anti-germ test (rate of inhibition)” value in assay [5] was “H (H represents a control value or rate of inhibition of larger than 50%)”. Further, in assay [6], the “Gray mold anti-germ test (rate of inhibition)” value is reported as “H (H represents a control value or rate of inhibition of larger than 50%)”.

Consider `COCCC1(C)N=C(n2cnc3c(C)c(C)ccc32)c2ccc(C)cc2O1` (stereo not drawn), for which the “Speckled leaf blotch anti-germ test (rate of inhibition)” value in assay [1] is listed as “H (H represents a control value or rate of inhibition of larger than 50%)”. For the same compound, in assay [2], the “Fusarium blight anti-germ test (rate of inhibition)” value is recorded as “H (H represents a control value or rate of inhibition of larger than 50%)”. Also, the “Rice blast disease pot test” value in assay [3] is “H (H represents a control value or rate of inhibition of larger than 50%)”. In assay [4], the “Tomato gray mold pot test” value was “H (H represents a control value or rate of inhibition of larger than 50%)”. In addition, the “Anthracnose anti-germ test (rate of inhibition)” value in assay [5] is “H (H represents a control value or rate of inhibition of larger than 50%)”. Besides, the “Gray mold anti-germ test (rate of inhibition)” value in assay [6] is “H (H represents a control value or rate of inhibition of larger than 50%)”.
